These results are taken from paper PMC10664964, “Structural and functional analysis of vaccinia viral fusion complex component protein A28 through NMR and molecular dynamic simulations” (PLOS Pathogens, 2023).

Assay [1] concerns the target mpox-H2 (aa 91-189), mpox virus ortholog of H2 (mpox virus) (UniProt P08583). In words: ITC.
In assay [2] the target is T1, vaccinia virus soluble H2 protein, sH2 (residues 91-189) (vaccinia virus, UniProt P08583 91-189).
T1 sequence: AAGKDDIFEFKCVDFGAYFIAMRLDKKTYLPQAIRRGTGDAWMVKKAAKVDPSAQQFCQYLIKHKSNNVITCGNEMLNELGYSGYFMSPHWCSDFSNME
In words: ITC. For orientation: Isothermal titration calorimetry measures the heat released or taken up as one component is titrated into another.

For “mpox-A30 (aa 56-146), mpox virus ortholog of A28 (domain or fragment)”, in assay [1], the Kd – broadly, the constant that tells how readily two partners part at equilibrium – was found to be 5.3 µM and the stoichiometry N (as a rule, a count of units in the complex or per binding partner) came out at 1.

B1: vaccinia virus soluble A28 protein, sA28 (residues 56-146) (domain or fragment)
chain: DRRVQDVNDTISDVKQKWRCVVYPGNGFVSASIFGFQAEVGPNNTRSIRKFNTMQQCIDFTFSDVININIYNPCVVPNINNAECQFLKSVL
As for B1, in assay [2], the Kd is 4.3 µM, the dH is -8.8 kcal/mol and the “stoichiometry N” value is 1.
